Compound potency records, mixed from different reports. Data source: NIAID ChemDB in PubChem.

All rows: cytotoxicity tests; cell line: MT-4; endpoint: CC50

a–b is a range or a potency band. An empty or dashed field is not shown. CCn is the concentration with n% toxicity to the cells. Neighbouring rows are from separate reports.

smiles | method | result
CC(C)(C)OC(=O)N(CCCN(Cc1ccccc1)C(=O)OC(C)(C)C)CCC(=O)N(Cc1ccccc1)CC(O)CN(Cc1ccccc1)C(=O)CCN(CCCN(Cc1ccccc1)C(=O)OC(C)(C)C)C(=O)OC(C)(C)C | - | >50 µM
CC1=C(C(=O)Nc2ccc(F)c(Cl)c2)C2=NN=C(N)C2C(=O)N1 | MTT | 19.4 µg/mL
COC(=O)/C=C1\S/C(=N/N=C/c2ccc(N(C)C)cc2)NC1=O | MTT | 87.25 µM
O=S1(=O)N=C(OCc2ccccc2)c2ccccc2N1Cc1ccc(Cl)c(Cl)c1 | - | >250 µM
Cc1cc(C)cc(Sc2c(C(C)C)c(=O)[nH]c(=O)n2Cc2cc(C(F)(F)F)cc(C(F)(F)F)c2)c1 | MTT | >100 µg/mL
CC1=C(C(=O)Nc2ccc(Br)cc2)C2=NN=C(N)C2C(=O)N1 | MTT | 108.2 µg/mL
Cc1cc(=O)oc2c3c(c4c(c12)OC(C)(C)C=C4)OC(C)(C)C=C3 | MTT | 34 µM
O=[N+]([O-])c1cnn2c1nnc1ccccc12 | - | 0.8 µM
O=C(/C=C/c1ccc(Br)cc1)c1ccccc1O | MTT | 34.44 µM
COc1ccc(NC(=O)C2=C(C)NC(=O)C3C(N)=NN=C23)cc1 | MTT | 88.8 µg/mL
O=S(=O)(O)c1cc(N=C=S)ccc1/C=C/c1ccc(N=C=S)cc1S(=O)(=O)O | - | >500 µM
C[C@]1(CO)O[C@@H](n2cc(F)c(=O)[nH]c2=O)[C@H](O)[C@@H]1O | - | >100 µM
O=C1CSC(=Nc2cccc(C(F)(F)F)c2)N1c1ccc([N+](=O)[O-])cc1 | MTT / absorbance | 48 µM
COc1ccc(CCN2C(=O)/C(=C\c3ccc(F)cc3)N(CCc3ccc(OC)c(OC)c3)C2=S)cc1OC | MTT | 18 µg/mL
O=C1CSC(=Nc2cccc(C(F)(F)F)c2)N1c1cccc(Br)c1 | MTT / absorbance | 54 µM
N#Cc1cnn2c1nnc1cc(Cl)ccc12 | - | 4.5 µM
Cc1c(C(C)(O)c2cccc(C(F)(F)F)c2)n(COCc2ccccc2)c(=O)[nH]c1=O | MTT | 91.9 µM
COc1cc(C2SCC(=O)N2Cc2ccco2)cc(OC)c1OC | - | 358 µM
FC(F)(F)c1cccc(-n2nnnc2NCc2ccccc2)c1 | MTT / absorbance | >100 µM
CC(C)(C)OC(=O)N(CCCCCC(=O)N(CC(=O)CN(Cc1ccccc1)C(=O)CCCCCN(Cc1ccccc1)C(=O)OC(C)(C)C)Cc1ccccc1)Cc1ccccc1 | - | >50 µM
COc1ccc(C(=O)/C=C/c2ccc(O)cc2)c(O)c1 | MTT | 38.78 µM
CC1=C(C(=O)Nc2ccc(Cl)cc2C)C2=NN=C(N)C2C(=O)N1 | MTT | 68.6 µg/mL
Cc1cn([C@H]2OC(C)(CO)[C@H](O)[C@@H]2O)c(=O)[nH]c1=O | - | >100 µM
O=C1CSC(c2ccc(-c3cccc4ccccc34)cc2)N1Cc1ccco1 | - | 39.32 µM
CC1=C(C(=O)Nc2cccc(C)c2)C2=NN=C(N)C2C(=O)N1 | MTT | 67.2 µg/mL
CCc1cc(=O)c2ccc3c(c2o1)[C@@H](OC(=O)C12CCC(C)(C(=O)O1)C2(C)C)[C@@H](OC(=O)C12CCC(C)(C(=O)O1)C2(C)C)C(C)(C)O3 | - | 9.27 µM
O=S1(=O)N=C(OCc2ccccc2)c2ccccc2N1Cc1ccccc1 | - | 100 µM
COc1ccc(CCN2C(=O)/C(=C\c3ccccc3)N(CCc3ccc(OC)c(OC)c3)C2=S)cc1OC | MTT | 56.6 µg/mL
CCOCn1c(C(=O)C2=CCCCC2)c(CC)c(=O)[nH]c1=O | MTT | >100 µM
O=[N+]([O-])c1ccc2c(c1)[n+]([O-])nc1ccnn12 | - | 39 µM
COc1cc(Cn2c(Oc3cc(C)cc(C)c3)c(C(C)C)c(=O)[nH]c2=O)cc(OC)c1 | MTT | >100 µg/mL
COc1ccc(/C=C/C(=O)c2ccc(OC)cc2O)cc1 | MTT | 192 µM
COc1ccccc1C(C)c1c(C)c(=O)[nH]c(=O)n1COCc1ccccc1 | MTT | >329 µM
CC(C)(C)OC(=O)N(CCCCCCN(Cc1ccccc1)C(=O)OC(C)(C)C)CCCCCC(=O)N(Cc1ccccc1)CC(O)CN(Cc1ccccc1)C(=O)CCCCCN(CCCCCCN(Cc1ccccc1)C(=O)OC(C)(C)C)C(=O)OC(C)(C)C | - | 10 µM
O=C1c2ccccc2N(Cc2ccccc2Cl)S(=O)(=O)N1Cc1ccccc1 | - | 19.9–22.7 µM
COc1ccc(CCN2C(=O)/C(=C\c3cc(OC)c(OC)c(OC)c3)N(CCc3ccc(OC)c(OC)c3)C2=S)cc1OC | MTT | 13.7 µg/mL
Cc1cn([C@H]2C[C@@H](OCCP(=O)(O)O)CO2)c(=O)[nH]c1=O | - | >250 µM
FC(F)(F)c1cccc(-n2nnnc2Nc2ccc(Cl)c(Cl)c2)c1 | MTT / absorbance | 45 µM
COc1ccc(CCN2C(=O)/C(=C\c3ccc(N(C)C)cc3)N(CCc3ccc(OC)c(OC)c3)C2=S)cc1OC | MTT | 19.1 µg/mL
O=C1c2ccccc2N(Cc2ccc(Cl)cc2)S(=O)(=O)N1Cc1ccc(Cl)cc1 | - | 21.6–22.8 µM
CCC(O)(c1ccc(C)cc1)c1c(C)c(=O)[nH]c(=O)n1COCc1ccccc1 | MTT | 6.82 µM
CC1(CO)O[C@H](n2cnc3c(N)ncnc32)[C@@H](O)[C@H]1O | - | >100 µM
c1ccc(C2SCc3nc4ccccc4n32)cc1 | - | 19.2 µM
CC(C)(C)OC(=O)N(CCCCC(=O)N(CC(=O)CN(Cc1ccccc1)C(=O)CCCCN(Cc1ccccc1)C(=O)OC(C)(C)C)Cc1ccccc1)Cc1ccccc1 | - | >50 µM
Cc1cc(C)cc(Oc2c(C(C)C)c(=O)[nH]c(=O)n2Cc2ccccc2C#N)c1 | MTT | >100 µg/mL
O=C(OCc1ccccc1)N(Cc1ccccc1)CC(O)C(Sc1ccccc1)N(Cc1ccccc1)C(=O)OCc1ccccc1 | - | 100 µM
CC=CC(O)c1c(CC)c(=O)[nH]c(=O)n1COCC | MTT | >100 µM
COC(=O)/C=C1\S/C(=N/N=C/c2ccccc2OCc2ccccc2)NC1=O | MTT | 14.35 µM
CC(C)(C)OC(=O)N(Cc1ccccc1)CC(O)C(Sc1ccccc1)N(Cc1ccccc1)C(=O)OC(C)(C)C | - | 50 µM
O=C1CSC(=Nc2cccc(C(F)(F)F)c2)N1c1ccccc1F | MTT / absorbance | >100 µM
CC1=C(C(=O)Nc2ccccc2C)C2=NN=C(N)C2C(=O)N1 | MTT | 83.3 µg/mL
Cc1cc(=O)oc2c(C(C)OC(=O)C34CCC(C)(C(=O)O3)C4(C)C)c(OC(C)C)ccc12 | - | 20 µM
NCCC[C@@H](N)CC(=O)NCN | - | 0.36 µg/mL
C=C(c1ccc(C)cc1)c1c(C(C)C)c(=O)[nH]c(=O)n1COCc1ccccc1 | MTT | 35.48 µM
Cc1ncc(CO)c(C=O)c1O | - | 200 µM
CC=CC(=O)c1c(CC)c(=O)[nH]c(=O)n1COCC | MTT | 30 µM
CCc1c(Oc2cc(C)cc(C)c2)n(Cc2cc(Cl)cc(Cl)c2)c(=O)[nH]c1=O | MTT | >100 µg/mL
COc1ccc(CCN2C(=O)/C(=C\c3ccccc3Cl)N(CCc3ccc(OC)c(OC)c3)C2=S)cc1OC | MTT | 19.5 µg/mL
CCc1c(Oc2cc(C)cc(C)c2)n(Cc2cc(C(F)(F)F)cc(C(F)(F)F)c2)c(=O)[nH]c1=O | MTT | >100 µg/mL
Cc1cccc(C)c1C1SCC(=O)N1Cc1ccco1 | - | 42.8 µM
O=[N+]([O-])c1ccc2c(c1)nnc1ccnn12 | - | 30.7 µM
Cc1ccccc1C1SCC(=O)N1Cc1ccco1 | - | 160 µM
CN(C(=O)N(Cc1ccccc1)CC(O)C(Sc1ccccc1)N(Cc1ccccc1)C(=O)N(C)c1ccccc1)c1ccccc1 | - | 50 µM
COC(=O)/C=C1\S/C(=N/N=C/c2ccccc2Cl)NC1=O | MTT | 78.7 µM
O=C1CSC(=Nc2cccc(C(F)(F)F)c2)N1Cc1ccccc1 | MTT / absorbance | 43 µM
CCc1c(Sc2cc(C)cc(C)c2)n(Cc2cc(F)cc(F)c2)c(=O)[nH]c1=O | MTT | >100 µg/mL
COc1ccc(CN(CC(O)C(Sc2ccccc2)N(Cc2ccc(OC)cc2)C(=O)OCC(C)C)C(=O)OCC(C)C)cc1 | - | 50 µM
O=C(/C=C/c1ccc(O)cc1)c1ccccc1O | MTT | 178 µM
COC(=O)/C=C1\S/C(=N/N=C/c2cc(OC)c(O)c(OC)c2)NC1=O | MTT | 14.5 µM
Nc1ncnc2c1ncn2[C@H]1C[C@@H](OCCP(=O)(O)O)CO1 | - | >250 µM

Repeating the first 8 entries:

smiles | method | result
CC(C)(C)OC(=O)N(CCCN(Cc1ccccc1)C(=O)OC(C)(C)C)CCC(=O)N(Cc1ccccc1)CC(O)CN(Cc1ccccc1)C(=O)CCN(CCCN(Cc1ccccc1)C(=O)OC(C)(C)C)C(=O)OC(C)(C)C | - | >50 µM
CC1=C(C(=O)Nc2ccc(F)c(Cl)c2)C2=NN=C(N)C2C(=O)N1 | MTT | 19.4 µg/mL
COC(=O)/C=C1\S/C(=N/N=C/c2ccc(N(C)C)cc2)NC1=O | MTT | 87.25 µM
O=S1(=O)N=C(OCc2ccccc2)c2ccccc2N1Cc1ccc(Cl)c(Cl)c1 | - | >250 µM
Cc1cc(C)cc(Sc2c(C(C)C)c(=O)[nH]c(=O)n2Cc2cc(C(F)(F)F)cc(C(F)(F)F)c2)c1 | MTT | >100 µg/mL
CC1=C(C(=O)Nc2ccc(Br)cc2)C2=NN=C(N)C2C(=O)N1 | MTT | 108.2 µg/mL
Cc1cc(=O)oc2c3c(c4c(c12)OC(C)(C)C=C4)OC(C)(C)C=C3 | MTT | 34 µM
O=[N+]([O-])c1cnn2c1nnc1ccccc12 | - | 0.8 µM